Measured data: PubChem BioAssay AID504761 (Drosophila RNAi Screening Center, 2011)

Screen: 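Insect host genes that dengue virus relies on to spread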 (primary screen)
Cell system: D.Mel-2 cells from Drosophila
Knock-down reagent: long dsRNA against Drosophila genes
Conditions: infection with dengue virus type 2; dose and infection time not stated
Detection: 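Per well on two replicate plates, imaging gave the percent of cells positive for viral envelope protein, ranked by infection, and a nuclear count of cells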
Direction: infection score: higher = more virus-infected cells
Active means: 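Very low infection ranking in both replicate wells (chance probability at most 0.065), then a retest showing infection dropped 1.5-fold or more at p below 0.05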
Meaning of the calls: active = confirmed: knock-down lowers infection; inactive = not picked or not confirmed
In all, the deposit lists about 22,000 reagents; shown is a random part of those with a known target gene and a result. Of all reagents, 116 (0.52%) got an active call. 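Calls depend on retest data that are not deposited; infection was ranked per plate without normalising between plates; the unit of the infection score is not given.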 Unmarked entries are inactive. Not all columns of the deposit are shown. Not stated in the record: the amount of reagent, the time to read-out.

What did the screen give for DCAF12 [DRSC15475]?
infection score, replicate 1: 2.72

How did the screen score CG42699 [DRSC18076]?
infection score, replicate 1: 3.36

With CG42699 [DRSC18341], how do the results read?
infection score, replicate 1: 4.44

With CG42699 [DRSC25221], what does the deposit list?
infection score, replicate 1: 10.1

How did the screen score Ppn [DRSC15328]?
infection score, replicate 1: 1.92

For Ppn [DRSC27718], what was measured?
infection score, replicate 1: 4.98

Which result is listed for lncRNA:sphinx [DRSC17199]?
infection score, replicate 1: 5.29

With Col4a1 [DRSC03291], what was measured?
infection score, replicate 1: 3.44

How did the screen score Hel25E [DRSC03342]?
infection score, replicate 1: 12.9

With Hel25E [DRSC28348], what does the deposit list?
infection score, replicate 1: 18.4

For Xpd [DRSC04666], what was measured?
infection score, replicate 1: 3.11

What is on record for Xpd [DRSC27757]?
infection score, replicate 1: 19.3

Reprinted from the entries so far, 2 entries:
lncRNA:sphinx [DRSC17199]: infection score, replicate 1 = 5.29
Col4a1 [DRSC03291]: infection score, replicate 1 = 3.44
